This is an account of results in article PMC6504873, “High-throughput screening of the Plasmodium falciparum cGMP-dependent protein kinase identified a thiazole scaffold which kills erythrocytic and sexual stage parasites” (Scientific Reports, 2019).

Structures are written as SMILES.

The nature of the series: Inhibition Frequency Index (IFI), promiscuity.
For the compound `COc1cc(CS(C)(=O)=O)ccc1Nc1nc(Nc2cc(F)ccc2C(N)=O)c2cc[nH]c2n1` [Compound 10], the IFI came to 7.9. Consider `COc1cccc(Nc2nc(-c3ccncc3)cc(N3CCN(C)CC3)n2)c1` [Compound 9], for which the IFI was 6.6. `CNCCOc1cnc(-c2ccoc2C)c(-c2ccc3cnccc3c2)c1` [Compound 13] had an IFI of 10.1. The compound `O=C(N[C@@H](CO)c1ccccc1)c1ccc2cncc(-c3cn[nH]c3)c2n1` [Compound 11] had an IFI of 5.7. For the compound `CC(C)(CN)c1cc(-c2ccc(Cl)c(O)c2)c(-c2ccncc2)o1` [Compound 4], the IFI is given as 6.8. Turning to `CNS(=O)(=O)c1cccc(Nc2ccnc(Nc3cccc(S(=O)(=O)NC)c3)n2)c1` [Compound 6], the IFI was 8.4. Turning to `Nc1ccc2c(-c3ccncc3)c(-c3ccc(Cl)c(O)c3)[nH]c2n1` [Compound 15], the IFI is listed as 5.6. Regarding `COc1ccc(-c2c(-c3cccc(C(=O)N4CCN(C)CC4)c3)oc3ncnc(N)c23)cc1` [Compound 7], the IFI was determined as 6.2. The compound `O=C(c1cccc(OCc2cccnc2)c1)N1CCc2sccc2C1CN1CCCCC1` (stereo not drawn) [Compound 14] had an IFI of 2.8. Consider `Cc1ccc(S(C)(=O)=O)cc1Nc1nccc(-c2sc(CC(N)=O)nc2-c2ccccc2)n1` [Compound 3], for which the IFI is 16.4. The compound `CCn1cc(-c2ccncn2)c(-c2cccc(NS(=O)(=O)c3cc(F)ccc3F)c2)n1` [Compound 2] registered an IFI of 5.6. For the compound `Nc1nc(Nc2cccc3cnccc23)nn1C(=O)C1CCCCC1` [Compound 16], the IFI is reported as 4.2.

`COc1ccc(CCNC(=O)CSc2ncnc3[nH]ncc23)cc1OC` [Compound 8]: the IFI was 1.9. `CCn1c(-c2nonc2N)nc2c(-c3ccccc3)ncc(CN(C)C3CCN(C)CC3)c21` [Compound 5] came in with an IFI of 3.6.

In the case of `NCCNCc1ccc(-c2cc3ccncc3cc2OC2CCNCC2)s1` [Compound 12], the IFI came out at 3.8.
